The values below come from PubChem BioAssay.

The chains behind the UniProt entries cited, without tags or fusion partners. Where a name states a change or a piece, a line headed by the entry shows the natural chain unless it says otherwise.
UniProt P60615, whole entry, looked up: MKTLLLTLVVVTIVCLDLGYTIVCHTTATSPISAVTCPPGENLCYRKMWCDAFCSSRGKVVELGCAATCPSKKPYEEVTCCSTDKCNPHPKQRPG
UniProt Q08210: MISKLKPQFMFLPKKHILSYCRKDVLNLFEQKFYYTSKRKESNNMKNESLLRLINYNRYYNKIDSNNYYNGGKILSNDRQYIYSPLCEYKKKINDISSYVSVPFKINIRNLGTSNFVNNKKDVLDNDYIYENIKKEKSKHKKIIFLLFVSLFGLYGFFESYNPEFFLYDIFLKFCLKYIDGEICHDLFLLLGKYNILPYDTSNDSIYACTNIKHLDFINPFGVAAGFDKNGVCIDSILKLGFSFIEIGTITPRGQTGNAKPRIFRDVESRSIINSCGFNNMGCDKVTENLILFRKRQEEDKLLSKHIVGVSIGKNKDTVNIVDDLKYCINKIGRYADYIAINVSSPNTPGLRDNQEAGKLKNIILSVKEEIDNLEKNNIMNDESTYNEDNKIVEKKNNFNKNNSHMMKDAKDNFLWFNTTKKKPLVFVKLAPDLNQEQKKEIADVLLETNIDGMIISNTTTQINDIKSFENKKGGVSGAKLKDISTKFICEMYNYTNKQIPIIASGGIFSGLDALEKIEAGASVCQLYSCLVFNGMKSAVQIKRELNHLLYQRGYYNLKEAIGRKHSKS

Structures are written as SMILES. The entries are a selection whose mix differs from that of the whole data set. This is one part of the list. Calls of active or inactive are those of the source.

A short description of assay [1]: E. coli growth modulation, two-sided OD650, primary screen, E. coli filamentation project, strain DRC41, 24 h (AID 1093).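 Further: MC1000 strain lacking acrAB efflux and sulA so SOS filamentation is blocked; test concentration not given here.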 The settings on record: OD650, 24 h, higher = more signal, called active from +8 up or from −8 down.
Assay [2] has as its system Plasmodium falciparum Sir2 (PF13_0152, Sir2A). Nature of the assay: pfSir2 binders on small-molecule microarrays, primary screen, biochemical, small-molecule microarray, 635 nm fluorescence (AID 1098).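 Further: score merges spot fluorescence intensity with its signal-to-noise ratio.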 Particulars: small-molecule microarray binding, fluorescence 635 nm; higher = more signal.
The subject of assay [3] is Human papillomavirus type 1a protein E7 (residues 44-93). In words: HPV1a E7 fragment binders on microarrays, primary screen, biochemical, small-molecule microarray, residues 44-93, 635 nm fluorescence (AID 1108).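 Further: E7 fragment applied at 1 µg/mL in TBST for 1 h at 4 C; score combines spot fluorescence with its signal to noise ratio.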 Particulars: small-molecule microarray binding, fluorescence 635 nm; higher = more signal.
The target of assay [4] is Alpha-bungarotoxin (Bungarus multicinctus) (UniProt P60615). In words: alpha-bungarotoxin binders on microarray, profiling panel, artefact control for SMM control protein annotation, biochemical, small-molecule microarray, Alexa647 label, 635/667 nm fluorescence (AID 1117). The settings on record: alpha-BTX-A647 binding fluorescence, higher = more signal.
Assay [5] has as its system Human papillomavirus type 1a E7 protein (residues 1-88). In words: HPV1a E7 small-molecule binders, primary screen, biochemical, small-molecule microarray, residues 1-88, 635 nm (AID 1129). The settings on record: small-molecule microarray binding, fluorescence 635 nm; higher = more signal.
A short description of assay [6]: E. coli DRC41 culture turbidity changes, primary screen, E. coli filamentation inducer project, strain DRC41, OD650, 48 h (AID 1152).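 Further: E. coli MC1000 strain DRC41 lacking acrAB efflux pump and sulA.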 Particulars: E. coli DRC41 (acrAB sulA), higher = more signal, called active from +8 up or from −8 down.
For assay [7], the target named is Dihydroorotate dehydrogenase (quinone), mitochondrial (Plasmodium falciparum (isolate 3D7)) (UniProt Q08210). In words: PfDHODH enzyme inhibitors, primary screen, biochemical, C-terminal His tag, absorbance 600 nm (AID 1175).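 Further: recombinant parasite enzyme with a five histidine tag at its C terminus; test concentration not given here.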 The settings on record: DCIP absorbance 600 nm, higher = more signal, called active from +8 up or from −8 down.
Assay [8] can be described thus: E. coli acrAB mutant growth effects, primary screen, E. coli filamentation inducers, strain DRC39, OD650, 24 h (AID 1178).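 Further: growth measured as culture turbidity by optical density at 650 nm; test concentration not given here.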 Particulars: higher = more signal, called active from +8 up or from −8 down.
Assay [9] is described as follows: E. coli acrAB mutant growth effects, primary screen, E. coli filamentation inducers, strain DRC39, OD650, 48 h (AID 1179).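 Further: screen aims at cell division blockers that make cells filament.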 Particulars: E. coli DRC39 delta-acrAB growth, higher = more signal, called active from +8 up or from −8 down.
A short description of assay [10]: Plasmodium falciparum growth inhibition, primary screen, strain 3D7, DAPI fluorescence, 100 nL (AID 1184).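 Further: parasites grown inside human red blood cells in medium with human serum.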 Particulars: P. falciparum 3D7 growth, 3 d, higher = more signal.

Take `O=P(/N=C1/CC(CCCO)=CC(c2cccs2)N1Cc1cccc(OC(F)(F)F)c1)(Oc1ccccc1)Oc1ccccc1` (stereo not given): the z-score in assay [1] is inactive: -0.199; in assay [6] it was inactive: -0.0788; in assay [8], inactive: 1.29; in assay [9] it was inactive: 0.309; in assay [10], -1.4. Moreover, the composite z-score in [2] was 0.993; in assay [3] it was 1.2; in [4], 1.49; in [5], 1.1; in assay [7] it was inactive: -3.82.
With `COP(=O)(/N=C1/CC(c2ccc(CO)cc2)=CC(C2CC2)N1Cc1cc2c(cc1Br)OCO2)OC` (stereo not given), the z-score in assay [1] is inactive: 1.31; in assay [6] it was inactive: -0.773; in assay [8], inactive: 0.468; in assay [9] it was inactive: -1.13; in assay [10], -2.89. The composite z-score in [2] is 0.414; in assay [3], 0.711; in assay [4], 1.12; in [5], 0.544; in assay [7], inactive: -4.15.
For `CN1/C(=N\P(=O)(Oc2ccccc2)Oc2ccccc2)CC(CCCO)=CC1C1CC1` (stereo not given), the z-score was inactive: -0.283 in assay [1]; inactive: 0.593 in assay [6]; inactive: 0.578 in [8]; inactive: 1.2 in assay [9]; 0.0918 in assay [10]. In addition, the composite z-score in assay [2] is -0.0209; in assay [3], 0.0939; in assay [4] it was 0.46; in assay [5] it was 0.198; in [7], inactive: -5.86.
On to `COP(=O)(/N=C1/CC(CCCO)=CC(c2cccs2)N1C)OC` (stereo not given), for which the z-score in assay [1] is inactive: 1.32; in assay [6], inactive: 1.71; in [8] it was inactive: 2.26; in assay [9] it was inactive: 1.58; in assay [10], -1.88. Also, the composite z-score in [2] was 1.03; in assay [3], 0.203; in assay [4] it was 1.81; in assay [5] it was 0.643; in assay [7], active: -19.2.
As to `COP(=O)(/N=C1/CC(CCCO)=CC(c2ccc(CN3CCCC3)cc2)N1Cc1sc2ccccc2c1Cl)OC` (stereo not given), the z-score in assay [1] was inactive: 0.0218; in [6] it was inactive: -0.0949; in assay [8], inactive: 1.54; in [9] it was inactive: 1.04; in [10], -2.9. The composite z-score in assay [2] was 1.35; in assay [3], 0.0634; in assay [4] it was 0.404; in assay [5], 0.008; in [7] it was active: -18.6.
In the case of `COP(=O)(/N=C1/CC(c2ccc(CO)cc2)=CC(c2cccs2)N1C)OC` (stereo not given), the z-score was inactive: 0.639 in assay [1]; inactive: 0.852 in assay [6]; inactive: 0.629 in assay [8]; inactive: 0.556 in [9]; -2.03 in [10]. The composite z-score was -0.0312 in [2]; 0.17 in assay [3]; 0.675 in assay [4]; -0.0043 in [5]; inactive: -6.35 in [7].
Turning to `COP(=O)(/N=C1/CC(c2ccc(CO)cc2)=CC(C2CC2)N1Cc1sc2ccccc2c1Cl)OC` (stereo not given), the z-score is active: -14.2 in [1]; active: -10.5 in assay [6]; active: -21 in assay [8]; active: -18.8 in [9]; -2.89 in assay [10]. Besides, the composite z-score is 1.13 in assay [2]; -0.0532 in assay [3]; 2.65 in assay [4]; 0.907 in assay [5]; inactive: -4.03 in assay [7].
As to `COP(=O)(/N=C1/CC(CCCO)=CC(c2ccc(CN3CCCC3)cc2)N1C)OC` (stereo not given), the z-score is inactive: 0.975 in assay [1]; inactive: 1.53 in [6]; inactive: 0.703 in assay [8]; inactive: 0.544 in assay [9]; -0.0354 in assay [10]. The composite z-score in assay [2] was -0.333; in assay [3] it was -0.153; in assay [4], 0.259; in [5] it was 0.353; in assay [7] it was inactive: -5.91.
With `COP(=O)(/N=C1/CC(CCCO)=CC(C2CC2)N1Cc1cccc(OC(F)(F)F)c1)OC` (stereo not given), the z-score in [1] was inactive: 0.371; in assay [6], inactive: 0.59; in [8], inactive: 1.21; in assay [9] it was inactive: 0.832; in assay [10], -2.42. For the same compound, the composite z-score was -0.111 in assay [2]; -0.0615 in assay [3]; 0.287 in assay [4]; -0.227 in assay [5]; inactive: -5.32 in [7].
Take `COP(=O)(/N=C1/CC(CCCO)=CC(C)N1Cc1cccc(OC(F)(F)F)c1)OC` (stereo not given): the z-score in [1] was inactive: 1.05; in [6], inactive: 1.38; in assay [8] it was inactive: 2.65; in assay [9], inactive: 1.59; in assay [10], -1.35. For the same compound, the composite z-score in assay [2] was 0.215; in assay [3], -0.088; in [4], 0.637; in assay [5], 0.642; in assay [7], inactive: -3.86.
Take `O=P(/N=C1/CC(c2ccc(CO)cc2)=CC(C2CC2)N1Cc1sc2ccccc2c1Cl)(Oc1ccccc1)Oc1ccccc1` (stereo not given): the z-score in assay [1] was inactive: -0.708; in [6], inactive: -1.75; in assay [8], inactive: -1.96; in [9], inactive: -0.954; in [10], -3.15. For the same compound, the composite z-score in assay [2] was 1.19; in [3], 1.42; in [4], 1.82; in [5] it was 1.23; in assay [7], inactive: -0.493.
Take `O=P(/N=C1/CC(CCCO)=CC(C2CC2)N1Cc1cccc(OC(F)(F)F)c1)(Oc1ccccc1)Oc1ccccc1` (stereo not given): the z-score was inactive: 0.512 in [1]; inactive: 0.175 in [6]; inactive: 0.342 in [8]; inactive: 0.287 in assay [9]; -2.72 in [10]. Also, the composite z-score in assay [2] was 0.0453; in assay [3], 0.999; in [4], -0.219; in [5] it was 0.625; in assay [7], inactive: -0.0265.
Take `COP(=O)(/N=C1/CC(c2ccc(CO)cc2)=CC(C2CC2)N1C)OC` (stereo not given): the z-score was inactive: 1.54 in assay [1]; inactive: 2.27 in assay [6]; inactive: 1.96 in assay [8]; inactive: 1.77 in assay [9]; -1.33 in assay [10]. Also, the composite z-score in assay [2] was 1.35; in assay [3] it was 0.104; in assay [4], 0.664; in [5], 0.292; in assay [7], inactive: -5.92.
Turning to `COP(=O)(/N=C1/CC(CCCO)=CC(c2ccc(CN3CCCC3)cc2)N1Cc1cc2c(cc1Br)OCO2)OC` (stereo not given), the z-score in [1] is inactive: 1.72; in assay [6], inactive: 2.17; in assay [8] it was inactive: 2.47; in assay [9], inactive: 1.76; in assay [10], -2.14. For the same compound, the composite z-score was 0.0185 in assay [2]; 0.268 in assay [3]; 0.65 in assay [4]; 0.224 in assay [5]; inactive: -6.31 in assay [7].
On to `O=P(/N=C1/CC(CCCO)=CC(C2CC2)N1Cc1cc2c(cc1Br)OCO2)(Oc1ccccc1)Oc1ccccc1` (stereo not given), for which the z-score in [1] is inactive: -0.041; in assay [6], inactive: -0.318; in assay [8], inactive: 0.531; in assay [9] it was inactive: 0.358; in assay [10] it was -2.21. In addition, the composite z-score was 1.29 in assay [2]; 1.04 in assay [3]; 0.487 in assay [4]; 0.732 in assay [5]; inactive: -1.09 in assay [7].
